Anti-infective test results gathered from many reports (values: NIAID ChemDB through PubChem).

All rows: whole-cell or culture tests; organism: Herpes simplex virus 1; endpoint: EC50

An empty or dashed field is not shown. Neighbouring rows are from separate reports. ECn: concentration that inhibits the pathogen or its effect by n%.

smiles,strain or isolate,cell line,method,result
O=c1[nH]c(=O)n([C@H]2C[C@H](O)[C@@H](CO)O2)cc1/C=C\Br,S3,BHK-21,cytopathic effect,0.1 µg/mL
O=c1[nH]c(=O)n([C@@H]2O[C@H](CO)[C@@H](O)[C@@H]2O)cc1I,VR-3,CCRF-HSB-2,plaque count,23.5 µM
CSc1nsc(-c2ccc(OCc3ccccc3)cc2)c1C#N,F,HEP-2/L-929/VERO,plaque count,>50 µM
CC(=O)OC[C@H]1[C@H](COC(C)=O)[C@@H](COC(C)=O)O[C@H]1n1cnc2c(N)ncnc21,E-377,MEF,plaque count,123 µM
CCc1cn([C@H]2C[C@H](O)[C@@H](CO)O2)c(=S)nc1N,A4-3 (TK-),RPMI8226,cytopathic effect,>288.6 µM
COc1cc(O)c2c(=O)cc(-c3ccc(OC)c(OC)c3)oc2c1,HF,HeLa,plaque count,140 µg/mL
O=CC(OC(=O)c1cc(O)c(O)c(O)c1Oc1cc2c(c(O)c1O)-c1c(cc(O)c(O)c1O)C(=O)OC(C(OC(=O)c1cc(O)c(O)c(O)c1)C(C=O)OC(=O)c1cc(O)c(O)c(O)c1)C(O)COC2=O)C(OC(=O)c1cc(O)c(O)c(O)c1)C1OC(=O)c2cc(O)c(O)c(O)c2-c2c(cc(O)c(O)c2O)C(=O)OCC1O,HF,CV-1,plaque count,0.039 µg/mL
Nc1nc2c(ncn2CCC(CO)CO)c(=O)[nH]1,KD3,VERO,plaque count,1.7 µM
C=C1[C@H](CO)[C@@H](O)C[C@@H]1n1cnc2c(=O)[nH]c(N)nc21,,WI-38,plaque count,3 µM
CC(O)c1cn([C@@H]2O[C@H](CO)[C@@H](O)[C@@H]2O)c(=S)nc1N,A4-3 (TK-),RPMI8226,cytopathic effect,>244.8 µM
CC(=O)OC(C)[C@H]1CCC2C3CC4[C@H](C)C[C@@]5(CC[C@H](OC(C)=O)C[C@]45Cl)C3CC[C@@]21C,KOS,BHK-21,cytopathic effect,27.4 µM
C=Cc1cn([C@H]2C[C@H](O)[C@@H](CO)O2)c(=S)[nH]c1=O,KOS (TK+),RPMI8226,cytopathic effect,1.22 µM
Nc1ncnc2c1ncn2[C@@H]1O[C@H](COP(=O)(O)O)[C@@H](O)[C@@H]1O,Clinical isolate Wilson,MEF,plaque count,16 µM
CCc1cn([C@@H]2O[C@H](CO)[C@@H](O)[C@@H]2O)c(=S)nc1N,KOS (TK+),RPMI8226,cytopathic effect,15.4 µM
O=C1O[C@H]2[C@@H]3OC(=O)c4cc(O)c(O)c(O)c4-c4c(cc(O)c(O)c4O)C(=O)OC[C@H]2O[C@@H](OC(=O)c2cc(O)c(O)c(O)c2)[C@@H]3OC(=O)c2cc(O)c(O)c3c2[C@@H]2C1=CC(=O)[C@](O)(O3)C2(O)O,HF,CV-1,plaque count,0.093 µg/mL
O=c1[nH]c(=O)n([C@@H]2O[C@H](CO)[C@@H](O)[C@@H]2F)cc1I,VR-3,CCRF-HSB-2,plaque count,0.073 µM
O=C(O)P(=O)(O)O,KUPKA,GMK,plaque count,91.7 µM
CC(=O)OC(C)[C@H]1CCC2C3CC=C4C[C@@H](OC(C)=O)CC[C@]4(C=O)C3CC[C@@]21C,KOS,BHK-21,cytopathic effect,3.94 µM
CC(C)=CCc1cc(-c2coc3cc(O)cc(O)c3c2=O)cc(O)c1O,HF,CV-1,plaque count,>10 µg/mL
CC(=O)OC(C)[C@H]1CCC2C3CC4CC[C@@]5(CC[C@H](OC(C)=O)C[C@]45Cl)C3CC[C@@]21C,KOS,BHK-21,cytopathic effect,12.9 µM
Nc1nc(=O)n([C@H]2C[C@H](O)[C@@H](CO)O2)cc1/C=C/Br,KOS,Primary rabbit kidney cells,cytopathic effect,0.07 µg/mL
Nc1nc2c(ncn2CCCC(O)CF)c(=O)[nH]1,KOS,ESM,cytopathic effect,>400 µg/mL
C=Cc1cn([C@@H]2O[C@H](CO)[C@@H](O)[C@@H]2O)c(=S)[nH]c1=O,KOS (TK+),RPMI8226,cytopathic effect,1.23 µM
O=C(OC1OC2COC(=O)c3cc(Oc4c(C(=O)OC5C(O)OC6COC(=O)c7cc(O)c(O)c(O)c7-c7c(cc(O)c(O)c7O)C(=O)OC6C5OC(=O)c5cc(O)c(O)c(O)c5)cc(O)c(O)c4O)c(O)c(O)c3-c3c(cc(O)c(O)c3O)C(=O)OC2C(OC(=O)c2cc(O)c(O)c(O)c2)C1O)c1cc(O)c(O)c(O)c1,HF,CV-1,plaque count,0.036 µg/mL
O=c1[nH]c(=S)n([C@@H]2O[C@H](CO)[C@@H](O)[C@@H]2O)cc1/C=C/Br,A4-3 (TK-),RPMI8226,cytopathic effect,>213 µM
O=C(O)CP(=O)(O)O,TK-,VERO,plaque count,37.1 µg/mL
O=c1[nH]c(=O)n([C@@H]2O[C@H](CO)[C@@H](O)[C@@H]2O)cc1/C=C/Br,VR-3,CCRF-HSV-B,plaque count,0.052 µg/mL
Cc1cn([C@H]2C[C@H](O)[C@@H](CO)O2)c(=S)nc1N,A4-3 (TK-),RPMI8226,cytopathic effect,>300.8 µM
O=c1[nH]c(=O)n([C@H]2C[C@H](O)[C@@H](CO)O2)cc1/C=C/Br,S3,BHK-21,cytopathic effect,0.005 µg/mL
CC(O)c1cn([C@@H]2O[C@H](CO)[C@@H](O)[C@@H]2O)c(=S)[nH]c1=O,KOS (TK+),RPMI8226,cytopathic effect,>245.1 µM
Nc1nc(=O)n([C@H]2C[C@H](O)[C@@H](CO)O2)cc1/C=C/Br,,RK-13,plaque count,0.3 µM
Nc1ccn(CCCC(O)CF)c(=O)n1,B2006 (TK-),ESM,cytopathic effect,>400 µg/mL
O=C(OC1OC2COC(=O)c3cc(O)c(O)c(O)c3-c3c(cc(O)c(O)c3O)C(=O)OC2C(OC(=O)c2cc(O)c(O)c(O)c2)C1OC(=O)c1cc(O)c(O)c(O)c1)c1cc(O)c(O)c(Oc2c(C(=O)OC3OC4COC(=O)c5cc(O)c(O)c(O)c5-c5c(cc(O)c(O)c5O)C(=O)OC4C(OC(=O)c4cc(O)c(O)c(O)c4)C3OC(=O)c3cc(O)c(O)c(O)c3)cc(O)c(O)c2O)c1,HF,CV-1,plaque count,0.038 µg/mL
Nc1nc2c(ncn2CCC(CO)CO)c(=O)[nH]1,KOS (TK-),MRC-5,plaque count,240 µg/mL
CSc1nsc(-c2ccc(OCCc3ccccc3)cc2)c1C#N,F,HEP-2/L-929/VERO,plaque count,>20 µM
O=C(O)P(=O)(O)O,PFA-resistant,RK-13,plaque count,573 µM
Nc1ccn(C(CF)CCCO)c(=O)n1,B2006 (TK-),ESM,cytopathic effect,>400 µg/mL
O=c1[nH]c(=O)n([C@@H]2O[C@H](CO)[C@@H](O)[C@@H]2O)cc1/C=C/Br,VR-3,CCRF-HSB-2,plaque count,0.072 µM
COc1ccc(-c2cc(=O)c3c(O)c(OC)c(OC)cc3o2)cc1OC,HF,HeLa,plaque count,>200 µg/mL
CSc1nsc(-c2ccc(OCCOc3ccc(C#N)cc3)cc2)c1C#N,F,HEP-2/L-929/VERO,plaque count,>2 µM
Nc1nc2c(ncn2CCC(CO)CO)c(=O)[nH]1,Tomioka,BALB/3T3,plaque count,0.067 µg/mL
O=C(OC[C@H]1O[C@@H](OC(=O)c2cc(O)c(O)c(O)c2)[C@H](O)[C@@H](OC(=O)c2cc(O)c(O)c(O)c2)[C@@H]1O)c1cc(O)c(O)c(O)c1,F,A549,plaque count,0.061 µg/mL
Nc1nc(=S)n([C@@H]2O[C@H](CO)[C@@H](O)[C@@H]2O)cc1/C=C/Br,A4-3 (TK-),RPMI8226,cytopathic effect,>258.7 µM
Cc1cn([C@@H]2O[C@H](CO)[C@@H](O)[C@@H]2O)c(=O)[nH]c1=O,VR-3,CCRF-HSB-2,plaque count,1.78 µM
CSc1nsc(-c2ccc(OCCCCOc3ccccc3)cc2)c1C#N,F,HEP-2/L-929/VERO,plaque count,>20 µM
Cc1cn([C@@H]2O[C@H](COP(=O)(O)O)[C@@H](O)[C@@H]2O)c(=O)[nH]c1=O,MP,HELF,cytopathic effect,0.66 µg/mL
Nc1nc2c(ncn2COCCO)c(=O)[nH]1,V61665 (acyclovir-susceptible),HFF,cytopathic effect,0.5 µg/mL

3 of the rows above, restated:

smiles | strain or isolate | cell line | method | result
CC(=O)OC(C)[C@H]1CCC2C3CC4[C@H](C)C[C@@]5(CC[C@H](OC(C)=O)C[C@]45Cl)C3CC[C@@]21C | KOS | BHK-21 | cytopathic effect | 27.4 µM
Nc1nc2c(ncn2CCC(CO)CO)c(=O)[nH]1 | Tomioka | BALB/3T3 | plaque count | 0.067 µg/mL
CC(=O)OC(C)[C@H]1CCC2C3CC4CC[C@@]5(CC[C@H](OC(C)=O)C[C@]45Cl)C3CC[C@@]21C | KOS | BHK-21 | cytopathic effect | 12.9 µM